From paper PMC6753678, “Fueling Open Innovation for Malaria Transmission-Blocking Drugs: Hundreds of Molecules Targeting Early Parasite Mosquito Stages” (Frontiers in Microbiology, 2019)

Test system: P. falciparum late stage (stages IV-V) gametocytes
Test: P. falciparum late stage gametocyte ATP depletion assay (Pf GC-ATP)
[1] = unified cytotox / Pf GC-ATP IC50, red: <10-fold selectivity, green: >10-fold
[2] = unified cytotox / Pf GC-ATP IC50, <10-fold selectivity red, >10-fold green
[3] = unified cytotox / IC50, <10-fold red, >10-fold green

Row | Structure (SMILES) | Assay tox ratio Pf GC-ATP [1] | further results
1 | O=C(Nc1ccc(Oc2ccccc2)cc1)N(CCN1CCCC1)Cc1ccc(-c2ccc(CN3CCNCC3)cc2)cc1.O=C(O)C(F)(F)F [TCMDC-139652] | 6.98 | –
2 | CC(C)CNCc1cccc(-c2ccc(CN(CCCN3CCN(C)CC3)C(=O)/C=C/c3ccccc3)cc2)c1.O=C(O)C(F)(F)F [TCMDC-140545] | 10.56 | –
3 | NC1CCN(Cc2ccc(-c3ccc(-c4nc5cc(F)ccc5[nH]4)cc3)cc2)C1.O=C(O)C(F)(F)F (centres unmarked) [TCMDC-133872] | 8.77 | –
4 | Cl.c1ccc(CN2CCN(CCCCNc3c4ccccc4nc4ccccc34)CC2)cc1 [TCMDC-138009] | 12.48 | –
5 | Cc1ccc2nc(C)cc(N/N=C/c3ccc([N+](=O)[O-])cc3)c2c1 [TCMDC-142070] | 0.02 | –
6 | COc1ccc(CCNc2nc(NCc3ccccc3)c3cc(OC)c(OC)cc3n2)cc1OC [TCMDC-132017] | 0.82 | –
7 | CCn1c(-c2nonc2N)nc2c(-c3cccc(NC(=O)Nc4ccccc4OC)c3)ncc(OCCCN)c21.O=C(O)C(F)(F)F [TCMDC-136190] | 13.56 | –
8 | CC(C)CCNCc1ccc(OCc2cccc(COc3ccc(CNCCC(C)C)cc3I)c2)c(I)c1.Cl [TCMDC-137274] | 14.32 | –
9 | CCN(CC)CCCNc1nccc(N2CCc3ncnc(Nc4ccc(OCc5cccc(F)c5)c(Cl)c4)c3C2)n1 [TCMDC-135406] | 7.80 | –
10 | Cl.N=c1n(CCN2CCCCC2)c2ccccc2n1CC(O)c1ccc(Cl)c(Cl)c1 (centres unmarked) [TCMDC-124064] | – | Assay tox ratio Pf GC-ATP [2]: 1.59
11 | CCCCCCCN1CC[C@@H](CCCc2ccnc3ccc(OCCCCN/C(N)=N/O)cc23)[C@@H](CC)C1.O=C(O)C(=O)O [TCMDC-139839] | 36.34 | –
12 | Cc1cc(NCCc2ccccc2)nc(NC(=N)Nc2ccccc2Cl)n1 [TCMDC-138370] | 2.79 | –
13 | CCCCCCCN1CC[C@@H](CCCc2ccnc3ccc(OC)cc23)[C@@H](CCN)C1.O=C(O)C(=O)O [TCMDC-139278] | 11.18 | –
14 | NCc1ccc(CNCc2cccc(-c3ccc(-c4nc5ccccc5[nH]4)cc3)c2)cc1.O=C(O)C(F)(F)F [TCMDC-132815] | 45.14 | –
15 | CCN(CC)/C(=N\CCCCCC/N=C(\NC(=N)c1ccc(Cl)cc1)N(CC)CC)NC(=N)c1ccc(Cl)cc1 [TCMDC-131806] | 51.90 | –
16 | CC(C)CCNC(=N)Nc1ccc(OCCCOc2ccc(NC(=N)NCCC(C)C)cc2)cc1 [TCMDC-137615] | 86.21 | –
17 | CC(C)CNCc1cccc(-c2cccc(CN(CCCN3CCN(C)CC3)C(=O)/C=C/c3ccccc3)c2)c1.O=C(O)C(F)(F)F [TCMDC-140541] | 13.42 | –
18 | COc1ccc2c(=NN=Cc3ccc(OC)c4ccccc34)cc(C)[nH]c2c1 [TCMDC-142218] | 10.16 | –
19 | CN1CCN(CCCN(Cc2ccc(-c3cccc(CNC4CCCC4)c3)cc2)C(=O)Nc2ccccc2)CC1.O=C(O)C(F)(F)F [TCMDC-140605] | 80.72 | –
20 | O=C(Nc1ccc(N2CCNCC2)cc1)c1ccn2ncc(-c3cccc(Cl)c3)c2n1 [TCMDC-132663] | 6.35 | –
21 | COc1cc(Br)c(S(=O)(=O)n2cc(CN3CCC(N)CC3)c3cc(Cl)ccc32)cc1OC.O=C(O)C(F)(F)F [TCMDC-136384] | 2.77 | –
22 | O=C(Nc1nc(-c2ccccn2)cc2ccccc12)c1cccc(Cl)c1 [TCMDC-123886] | – | Assay tox ratio Pf GC-ATP [2]: 50.34

Row | Structure (SMILES) | Assay tox ratio Pf GC-ATP [1] | further results
23 | Cl.N=C(NCCCc1ccccc1)c1cccc(C(=N)NCCCc2ccccc2)n1 [TCMDC-137453] | 40.85 | –
24 | CCn1ncc2c(NC3CCOCC3)c(CNC(=O)c3ccnn3C)c(C)nc21 [TCMDC-136560] | 15.29 | –
25 | COc1ccc(CCNC(C)Cc2ccc(C(=O)Nc3ccc(CC(C)NCCc4cccc(Cl)c4)cc3)cc2)cc1 (centres unmarked) [TCMDC-139750] | 3.87 | –
26 | CC(C)(C)N1CCC(N(Cc2ccc(-c3ccc(C(F)(F)F)cc3)cc2)C(=O)Cn2c(CCc3cccc(F)c3F)cc(=O)c3cccnc32)CC1.O=C(O)C(O)C(O)C(=O)O [TCMDC-136011] | 1.30 | –
27 | COc1cccc(CCNCCCCCCNCCc2ccc(Cl)cc2)c1.Cl [TCMDC-131284] | 11.51 | –
28 | COc1cc(NCC(C)CNCc2cn(Cc3ccccc3)c3ccccc23)nc2ccccc12 (centres unmarked) [TCMDC-140496] | 2.92 | –
29 | C=CC(C)C1OC(=O)c2cc(OC)cc(OC)c21 (centres unmarked) [TCMDC-138676] | – | Assay tox ratio Pf GC-ATP [3]: 2.52
30 | CN1CCN(CCCN(Cc2cccc(-c3cccc(CNC4CCCC4)c3)c2)C(=O)/C=C/c2ccccc2)CC1.O=C(O)C(F)(F)F [TCMDC-140543] | 8.91 | –
31 | O=C(COc1ccccc1)N(Cc1ccc(-c2ccc(CNC3Cc4ccccc4C3)cc2)cc1)C1CCNCC1.O=C(O)C(F)(F)F [TCMDC-141450] | 7.91 | –
32 | O=C(O)C(F)(F)F.O=S(=O)(NCCN1CCCC1)c1cccc(-c2ccc(CNCc3ccc(F)cc3)cc2)c1 [TCMDC-132289] | 2.75 | –
33 | CCCCCOc1ccc(C(=NC)N(CCCCC)CCCCC)c2ccccc12.I [TCMDC-137703] | 7.12 | –
34 | COCCn1c(-c2cccc(Cl)c2)nn(-c2ccc([N+](=O)[O-])cc2C#N)c1=S [TCMDC-134719] | – | Assay tox ratio Pf GC-ATP [3]: 36.01
35 | COc1cc2ccccc2cc1OCCCN1CCN(CC(c2ccc(F)cc2)N2CCN(C(C)C)CC2)CC1.Cl (centres unmarked) [TCMDC-135496] | 2.99 | –
36 | O=C(CC1CCCC1)N(Cc1ccc(-c2ccc(CNC3Cc4ccccc4C3)cc2)cc1)CC1CCCCN1.O=C(O)C(F)(F)F (centres unmarked) [TCMDC-141446] | 6.45 | –
37 | c1ccc(CSC2=NNC(c3ccccn3)S2)cc1 (centres unmarked) [TCMDC-123769] | – | Assay tox ratio Pf GC-ATP [2]: 3.13
38 | COc1ccc2nc3cc(Cl)ccc3c(NCCN3CCN(C)CC3)c2c1 [TCMDC-137476] | 10.30 | –
39 | COc1cccc(Nc2c(C(N)=O)cnc3ccc(-c4ccc([S+](C)[O-])cc4)cc23)c1.O=C(O)C(F)(F)F (centres unmarked) [TCMDC-135184] | 17.54 | –
40 | Cc1cc(NCCCCCCNc2cc(C)nc3c(C)cccc23)c2cccc(C)c2n1.Cl [TCMDC-125702] | 7.54 | –
41 | COc1cc(NC(=O)c2sc(-c3ccc(Cl)cc3)cc2NC(=O)c2cccnc2)ccc1OCCN1CCCC1 [TCMDC-135397] | 40.76 | –
42 | CCCCN(CCCC)CCCCNc1c2ccccc2nc2ccccc12.Cl [TCMDC-137461] | 34.55 | –
43 | COc1ccccc1-c1cccc(-c2cccc(NC(=O)c3ccc([N+](=O)[O-])o3)c2)n1 [TCMDC-124800] | – | Assay tox ratio Pf GC-ATP [2]: 6.90
44 | CCCCCCNC(=N)c1ccc(OCCCCCOc2ccc(C(=N)NCCCCCC)cc2)cc1.Cl [TCMDC-137619] | 17.42 | –

Row | Structure (SMILES) | Assay tox ratio Pf GC-ATP [1] | further results
45 | COc1ccc(CNCc2ccc(F)cc2)cc1-c1ccc(S(=O)(=O)NCCN2CCCC2)cc1.O=C(O)C(F)(F)F [TCMDC-132294] | 5.36 | –
46 | CN(C)CCN(Cc1ccccc1-c1ccc(CNCCc2ccccc2)cc1)C(=O)NC1CCCCC1.O=C(O)C(F)(F)F [TCMDC-140626] | 18.29 | –
47 | O=C(O)C(F)(F)F.c1cc(CNCCN2CCNCC2)cc(-c2cccc(-c3nc4ccccc4[nH]3)c2)c1 [TCMDC-132859] | 27.18 | –
48 | Cc1cccc2[nH]cc(C3CCN(CC4CCC(NC(=O)/C=C/c5ccc(Cl)c(Cl)c5)CC4)CC3)c12.Cl (centres unmarked) [TCMDC-140137] | 2.04 | –
49 | Oc1c(C(Nc2nc3ccccc3s2)c2ccc(OC(F)F)cc2)ccc2cccnc12 (centres unmarked) [TCMDC-124379] | – | Assay tox ratio Pf GC-ATP [2]: 54.77
50 | COc1ccc(CNCCc2cccs2)cc1-c1cccc(S(=O)(=O)NCCN2CCCC2)c1.O=C(O)C(F)(F)F [TCMDC-132479] | 6.81 | –
51 | COc1ccc(C[C@H](N)C(=O)N[C@H]2[C@@H](O)[C@H](n3cnc4c(N(C)C)ncnc43)O[C@@H]2CO)cc1.Cl [TCMDC-123927] | – | Assay tox ratio Pf GC-ATP [2]: 4.16
52 | CCN(CC)CCOc1ccc(C(O)(C#CC(O)(c2ccc(C)cc2)c2ccc(OCCN(CC)CC)cc2)c2ccc(C)cc2)cc1 (centres unmarked) [TCMDC-137198] | 11.57 | –
53 | CS(=O)(=O)CCNCc1nc(-c2ccc3c(=O)[nH]cnc3c2)cs1 [TCMDC-138539] | 1.57 | –
54 | C=C(C)Cn1cc(C2CCN(CCN3CCC(CNC(=O)c4ccc(-c5ccc(C#N)cc5)cc4)CC3)CC2)c2ccccc21 [TCMDC-138854] | 1.26 | –
55 | O=C(/C=C/c1ccc(Cl)c(Cl)c1)NCCCCCN1CCCC(CNS(=O)(=O)c2cccc(C(F)(F)F)c2)C1 (centres unmarked) [TCMDC-139597] | 0.44 | –
56 | Cc1ccc(C)c(CC(=O)N2CCC(n3c(C)nc4ccc(F)cc43)CC2)c1 [TCMDC-124790] | – | Assay tox ratio Pf GC-ATP [3]: 62.32
57 | CC(C)(C)OC(=O)NCc1ccc(Nc2nnc(-c3ccc(OCC(=O)NCc4ccc(C(C)(C)C)cc4)c([N+](=O)[O-])c3)o2)cc1 [TCMDC-134991] | 4.50 | –
58 | COc1cc2nc(NCC3CCN(c4nc(N)c5cc(OC)c(OC)cc5n4)CC3)nc(N)c2cc1OC [TCMDC-138723] | 17.61 | –
59 | Fc1ccc2[nH]c(-c3ccc(-c4ccc(CN5CCC(CCN6CCCCC6)CC5)cc4)s3)nc2c1.O=C(O)C(F)(F)F [TCMDC-133932] | 27.14 | –
60 | CCN(CC)Cc1cc(Nc2c3ccc(Cl)cc3nc3cccc(OC)c23)ccc1O.Cl [TCMDC-139222] | 25.13 | –
61 | Fc1ccc2[nH]c(-c3ccc(-c4ccc(CNCCN5CCNCC5)cc4)s3)nc2c1.O=C(O)C(F)(F)F [TCMDC-132869] | 47.17 | –
62 | O=C(NCCCCN1CCC(c2c[nH]c3ccc(-c4ccccc4)cc23)CC1)c1ccc(-c2ccccc2)cc1.O=C(O)C(=O)O [TCMDC-139064] | 5.14 | –
63 | CCNC1=NC2=C(CC(C(C)(C)C)CC2)C2(CCC(C(C)(C)C)CC2)S1.Cl (centres unmarked) [TCMDC-131288] | 4.77 | –
64 | CCN(Cc1ccc(-c2ccc(C(F)(F)F)cc2)cc1)C(=O)Cn1c(SCc2cccc(F)c2F)cc(=O)c2cc(CN3CCCCC3)ccc21.Cl [TCMDC-141592] | 1.80 | –
65 | Cc1cc(-c2cccc(CNC3CCCC3)c2)ccc1S(=O)(=O)NCCN1CCCC1.O=C(O)C(F)(F)F [TCMDC-132279] | 6.06 | –
